Results of unrelated studies side by side (data: NIAID ChemDB).

All rows: whole-cell or culture tests; agent: Candida albicans; measure: MFC

Blank or dashed fields: not listed here.

smiles,strain,method,result
C[C@H]1[C@H](O)[C@@H](C)/C=C/C=C/C=C/C=C/C=C/C=C/C=C/[C@H](O[C@@H]2O[C@H](C)[C@@H](O)[C@H](N)[C@@H]2O)C[C@@H]2O[C@](O)(C[C@@H](O)C[C@@H](O)CC[C@H](O)[C@@H](O)C[C@@H](O)CC(=O)O[C@H]1C)C[C@H](O)[C@H]2C(=O)O,ATCC 10231,visual reading,1 µg/mL
Fc1cccc(CO/N=C2/c3ccccc3OCC2n2cncn2)c1,ATCC 10231,-,>64 µg/mL
CCOc1ccc2nc3cc(N=C4NC(=O)/C(=C\c5ccc([N+](=O)[O-])cc5)S4)ccc3c(N)c2c1,ATCC 60193,broth dilution,1000 µM
C[C@H]1[C@H](O)[C@@H](C)/C=C/C=C/C=C/C=C/C=C/C=C/C=C/[C@H](O[C@@H]2O[C@H](C)[C@@H](O)[C@H](N)[C@@H]2O)C[C@@H]2O[C@](O)(C[C@@H](O)C[C@@H](O)CC[C@H](O)[C@@H](O)C[C@@H](O)CC(=O)O[C@H]1C)C[C@H](O)[C@H]2C(=O)O,ATCC 10231,broth dilution / absorbance,78.1 µg/mL
CCCCN(CCCOP(=O)([O-])OCC[N+](C)(C)C)c1c([N+](=O)[O-])cc(C(F)(F)F)cc1[N+](=O)[O-],Clinical isolate 44A,broth dilution,>16 µg/mL
Clc1ccc(C(c2ccccc2)n2cncn2)cc1,-,broth dilution,64 µg/mL
CCCCN(CCCCCCOP(=O)([O-])OCC[N+](C)(C)C)c1c([N+](=O)[O-])cc(C(F)(F)F)cc1[N+](=O)[O-],ATCC 10231,broth dilution,>16 µg/mL
O=C(c1ccccc1)C(c1ccccc1)n1nnc2ccccc21,-,broth dilution,>256 µg/mL
NC(=NC1CCCC1)c1ccc(-c2ccc(-c3ccc(C(N)=NC4CCCC4)cc3)o2)cc1,ATCC 76615,-,50 µg/mL
C[C@H]1[C@H](O)[C@@H](C)/C=C/C=C/C=C/C=C/C=C/C=C/C=C/[C@H](O[C@@H]2O[C@H](C)[C@@H](O)[C@H](N)[C@@H]2O)C[C@@H]2O[C@](O)(C[C@@H](O)C[C@@H](O)CC[C@H](O)[C@@H](O)C[C@@H](O)CC(=O)O[C@H]1C)C[C@H](O)[C@H]2C(=O)O,ATCC 10261,broth dilution / turbidity,0.7 µg/mL
Brc1ccc(CO/N=C2\c3ccccc3OCC2n2cncn2)cc1,ATCC 10231,-,64 µg/mL
Clc1ccc(C(c2ccccc2)n2ccnc2)cc1,-,broth dilution,0.5 µg/mL
Clc1ccc(CO/N=C2/c3ccccc3OCC2n2cnnc2)c(Cl)c1,ATCC 10231,-,>64 µg/mL
CCCCCCCCCCCCCCCCOP(=O)([O-])OCC[N+](C)(C)C,Clinical isolate 44A,broth dilution,4 µg/mL
Clc1ccc(CO/N=C2/c3ccccc3OCC2n2cnnc2)cc1,ATCC 10231,-,>64 µg/mL
c1ccc(C(c2ccccc2)n2cncn2)cc1,-,broth dilution,>256 µg/mL

For reference, 2 entries again:

smiles	strain	method	result
Fc1cccc(CO/N=C2/c3ccccc3OCC2n2cncn2)c1	ATCC 10231	-	>64 µg/mL
CCCCN(CCCCCCOP(=O)([O-])OCC[N+](C)(C)C)c1c([N+](=O)[O-])cc(C(F)(F)F)cc1[N+](=O)[O-]	ATCC 10231	broth dilution	>16 µg/mL

Rows are shuffled and stem from different studies.